Results of unrelated studies side by side (data: NIAID ChemDB).

Shared fields: whole-cell or culture tests; species: Mycobacterium kansasii; measure: MIC

Lines come from different laboratories, so protocols vary. An empty or dashed field is not shown.

structure	strain or isolate	method	conditions	result
FC(F)(F)c1ccc(-n2c(=S)oc3ccc(Cl)cc3c2=S)cc1	6509/96	-	14 d	16 µM
N/C(=N\N=C\c1ccccc1)SCc1ccccc1	ATCC 12478	broth dilution	21 d	62.5 µM
O=C(Oc1cc(Cl)ccc1C(=O)Nc1cccc(Cl)c1)c1cnccn1	6509/96	-	21 d	8 µM
O=C(Oc1cc(Cl)ccc1C(=O)Nc1ccc(F)cc1)c1ccccc1	235/80	broth dilution	21 d	8 µM
COc1ccc2oc(=O)n(-c3ccccc3)c(=S)c2c1	6509/96	-	21 d	16 µM
O=C(Nc1ccc(Br)cc1)c1cc(Cl)ccc1OS(=O)(=O)c1ccccc1	6509/96	-	14 d	8 µM
O=C(Oc1cc(Cl)ccc1C(=O)Nc1ccc(Cl)cc1)c1cnccn1	6509/96	-	21 d	2 µM
O=C(Nc1ccc(Cl)cc1)c1ccc(Cl)cc1OS(=O)(=O)c1ccccc1	235/80	-	7 d	8 µM
Cc1ccc(CS/C(N)=N/N=C/c2ccccc2)cc1	ATCC 12478	broth dilution	21 d	62.5 µM
O=C(Nc1ccc(F)cc1)c1ccc(Cl)cc1OS(=O)(=O)c1ccccc1	235/80	-	7 d	16 µM
O=C(Oc1cc(Cl)ccc1C(=O)Nc1ccc(Br)cc1)c1cnccn1	6509/96	-	21 d	4 µM
Fc1ccc2oc(=S)n(-c3ccc(Cl)c(Cl)c3)c(=S)c2c1	6509/96	-	21 d	2 µM
O=C(Nc1cccc(Br)c1)c1ccc(Cl)cc1OS(=O)(=O)c1ccccc1	235/80	-	7 d	16 µM
N/C(=N\N=C\c1ccccc1O)SCc1cccc(Cl)c1	ATCC 12478	broth dilution	14 d	62.5 µM
O=C(Oc1cc(Cl)ccc1C(=O)Nc1ccc(Cl)cc1)c1ccccc1	6509/96	broth dilution	7 d	2 µM
O=C(Oc1cc(Cl)ccc1C(=O)Nc1cccc(F)c1)c1cnccn1	6509/96	-	21 d	8 µM
O=C(Oc1ccc(Cl)cc1C(=O)Nc1cccc(Cl)c1)c1ccccc1	6509/96	broth dilution	7 d	4 µM
CC[C@@H](C)[C@H](NC(=O)OCc1ccccc1)c1cnc(-c2ccccc2)[nH]1	My 235/80	-	7 d	32 µM
O=C(Oc1cc(Cl)ccc1C(=O)Nc1ccc(Br)cc1)c1ccccc1	235/80	broth dilution	14 d	4 µM
C[C@@H](NC(=O)OCc1ccccc1)c1cnc(-c2ccc([N+](=O)[O-])cc2)[nH]1	My 235/80	-	14 d	>125 µM
O=C(Oc1cc(Cl)ccc1C(=O)Nc1cccc(Cl)c1)c1ccccc1	6509/96	broth dilution	21 d	8 µM
N/C(=N\N=C\c1cc(Cl)cc(Cl)c1O)SCc1ccc(Br)cc1	ATCC 12478	broth dilution	21 d	32 µM
O=C(Nc1ccc(Cl)cc1)c1cc(Cl)ccc1OS(=O)(=O)c1ccccc1	6509/96	-	7 d	8 µM
O=C(Oc1cc(Cl)ccc1C(=O)Nc1cccc(Br)c1)c1ccccc1	6509/96	broth dilution	14 d	4 µM
COc1ccc2oc(=O)n(-c3ccc(Cl)c(Cl)c3)c(=S)c2c1	6509/96	-	14 d	62.5 µM
Nc1ccc(C(=O)O)c(O)c1	6509/96	-	7 d	32 µM
O=C(OCc1ccccc1)N1CCC[C@H]1c1cnc(-c2ccc([N+](=O)[O-])cc2)[nH]1	My 6509/96	-	7 d	32 µM
N/C(=N\N=C\c1ccccc1)SCc1cccc(Cl)c1	6509/96	broth dilution	14 d	62.5 µM
COC(=O)c1cnccn1	235/80	-	7 d	>500 µM
N/C(=N\N=C\c1ccccc1O)SCc1ccc(Br)cc1	6509/96	broth dilution	14 d	32 µM
C[C@H](NC(=O)OCc1ccccc1)c1cnc(-c2ccccc2)[nH]1	My 6509/96	-	21 d	125 µM
N/C(=N\N=C\c1cc(Br)ccc1O)SCc1cccc(Cl)c1	ATCC 12478	broth dilution	14 d	32 µM
CC(C)[C@H](NC(=O)OCc1ccccc1)c1cnc(-c2ccc([N+](=O)[O-])cc2)[nH]1	My 6509/96	-	21 d	32 µM
O=c1oc2ccc(Cl)cc2c(=S)n1-c1cccc(F)c1	My 235/80	-	14 d	16 µM
O=C(Oc1ccc(Cl)cc1)c1cnccn1	235/80	-	21 d	500 µM
CC(C)[C@H](NC(=O)OCc1ccccc1)c1cnc(-c2ccccc2)[nH]1	My 235/80	-	21 d	62.5 µM